Results of unrelated studies side by side (data: NIAID ChemDB).

Common to all: tests in culture; agent: Mycobacterium smegmatis

An empty or dashed field is not shown. a–b is a range or a potency band. Neighbouring rows are from separate reports. MIC50, MIC90 and the like: level of inhibition, or share of isolates inhibited. ECn is the concentration giving n% inhibition of infection, replication or growth.

structure,read by,cell line,measure,strain,result
COc1c(N2CC[C@@H](CN)C2)c(F)cc2c(=O)c(C(=O)O)cn(C3CC3)c12,-,-,MIC99,A91V mutant,0.125 µg/mL
CCC1CNC[C@@H](CC)C12N=c1c(c3c4c5c(C)c(O)c3c(O)c1=NC(=O)/C(C)=C\C=C\[C@H](C)[C@H](O)[C@@H](C)[C@@H](O)[C@@H](C)[C@H](OC(C)=O)[C@H](C)[C@@H](OC)/C=C/O[C@@](C)(O5)C4=O)N2,luminescence,-,MIC90,-,330 µg/mL
CCCCCCCCCCCCCC#CCCC(=O)O,-,-,MIC,mc2155,>360 µg/mL
CC(C)NCCCNC(C)C,-,-,EC50,ATCC 607,>1000 µg/mL
Cc1[nH]c(-c2ccc(-c3ccc(C(F)(F)F)cc3)s2)nc1-c1ccccc1,broth dilution / turbidity,-,MIC100,-,20–50 µg/mL
Clc1ccc(-n2cc(C3CC(c4ccc(-c5ccccc5)cc4)=NN3)c(-c3ccccc3)n2)cc1,resazurin,-,MIC,-,125 µg/mL
COc1c(N2CC[C@@H](CN)C2)c(F)cn2c(=O)n(N)c(=O)c(C3CC3)c12,-,-,MIC99,G89C mutant,2.5 µg/mL
Cc1onc(-c2c(F)cccc2F)c1C(=O)N1CCN(c2cc3c(=O)c(C(=O)O)c4n(c3cc2F)CS4)CC1,agar,-,MIC,ATCC 14468,89.85 µM
CC(=O)Nc1cc2c3c(c1)n(C/C=C\Cn1cc(C)c(=O)[nH]c1=O)c(=O)n3CCC2,resazurin / absorbance,-,EC50,mc2155,>160 µg/mL
O=c1cc(-c2ccccc2)c2ccc(Cl)cc2o1,resazurin,-,MIC90,mc2155,>100 µg/mL
O=C(O)c1cn(C2CC2)c2cc(N3C[C@@H]4CCCN[C@@H]4C3)c(F)cc2c1=O,-,-,MIC99,D95Y mutant,0.5 µg/mL
Clc1ccc(-n2cc(C3CC(c4ccc5c(c4)CCO5)=NN3)c(-c3cccs3)n2)cc1,resazurin,-,MIC,-,62.5 µg/mL
NNC(=O)c1ccncc1,MTT / broth dilution,-,MIC,ATCC 14468,>1024 µg/mL
CCCCCCCCCCCCC#CCCCC(=O)O,-,-,MIC,mc2155,360 µg/mL
CCCCCCCC/C=C/CCCCCCCC(=O)OCC(COP(=O)(O)OCC1C(O)C(O)C(O)C(CP(=O)(O)O)C1O)OC(=O)CCCCCCC/C=C/CCCCCCCC,broth dilution,-,MIC,-,>2500 µM
CC[C@H](C)[C@@H](NC(=O)[C@@H](CCC(=O)O)NC(=O)[C@H](Cc1cnc[nH]1)NC(=O)[C@H](C)NC(=O)[C@H](N)Cc1ccccc1)C(=O)N[C@H]1CCCCNC1=O,resazurin,-,MIC,-,>50 µg/mL
CO[C@H]1/C=C/O[C@@]2(C)Oc3c(C)c(O)c4c(O)c(c5c(c4c3C2=O)NC2(CC3CCC(C2)N3)N=5)=NC(=O)/C(C)=C\C=C\[C@H](C)[C@H](O)[C@@H](C)[C@@H](O)[C@@H](C)[C@H](OC(C)=O)[C@@H]1C,luminescence,-,MIC90,-,320 µg/mL
COc1c(N2CC[C@@H](CN)C2)c(F)cc2c(=O)[nH]c(=O)n(C3CC3)c12,-,-,MIC99,D95Y mutant,100 µg/mL
CO[C@H]1/C=C/O[C@@]2(C)Oc3c(C)c(O)c4c(O)c(c5c(c4c3C2=O)NC2(CCN(CC(C)C)CC2)N=5)=NC(=O)/C(C)=C\C=C\[C@H](C)[C@H](O)[C@@H](C)[C@@H](O)[C@@H](C)[C@H](OC(C)=O)[C@@H]1C,luminescence,-,MIC90,-,240 µg/mL
NNC(=O)c1ccncc1,-,-,MIC,MC^2 799,15 µg/mL
CCCC(CCC)NCCNC(CCC)CCC,-,-,EC50,ATCC 607,<60 µg/mL
CC(C)(C)OC(=O)NCCCCCN,MTT,HepG2 cells,EC50,-,>50 µg/mL
C[C@@H](NC(=O)c1cc(N=O)cc(C(F)(F)F)c1)c1ccccc1,-,-,EC50,-,10.4 µg/mL
CC(C)N[C@@H](C)[C@@H](C)NC(C)C,-,-,EC50,ATCC 607,>1000 µg/mL
Cc1[nH]c(-c2ccc(-c3ccccc3OC(F)(F)F)o2)nc1-c1ccccc1Cl,broth dilution / turbidity,-,MIC100,-,11–20 µg/mL
Cc1nc(-c2ccc(F)cc2)sc1-c1cn2cc(Br)ccc2n1,broth dilution / absorbance,-,MIC,mc2155,20.8 µg/mL
CC1CN(c2cc3c(=O)c(C(=O)O)c4n(c3cc2F)CS4)CC(C)O1,agar,-,MIC,ATCC 14468,68.61 µM
CCCCCCCCCCCCCCCCCC#CC(=O)O,-,-,MIC,mc2155,>300 µg/mL
CO[C@H]1/C=C/O[C@@]2(C)Oc3c(C)c(O)c4c(O)c(c5c(c4c3C2=O)N[C@]2(CCCN(C)CC2)N=5)=NC(=O)/C(C)=C\C=C\[C@H](C)[C@H](O)[C@@H](C)[C@@H](O)[C@@H](C)[C@H](OC(C)=O)[C@@H]1C,luminescence,-,MIC90,-,540 µg/mL
CCCCC/C=C/CCCCc1cc(=O)c2ccccc2n1C,MTT,-,MIC,ATCC 19420,13.9 µM
Cc1[nH]c(-c2ccc(-c3cccc(F)c3C)o2)nc1-c1ccccc1,broth dilution / turbidity,-,MIC100,-,11–20 µg/mL
CC(=O)NC1Cc2cccc3c2n(c(=O)n3C/C=C\Cn2cc(C)c(=O)[nH]c2=O)C1,resazurin / absorbance,-,EC50,mc2155,>160 µg/mL
CCCCCCCCCCCCCC#CC(=O)O,-,-,MIC,mc2155,10 µg/mL
COc1c(N2CCC(N)C2)c(F)cc2c(=O)c(C(=O)O)cn(C3CC3)c12,-,-,MIC99,A91V mutant,1 µg/mL
Cc1ccc(-c2nn(-c3ccc(Cl)cc3)cc2C2CC(c3ccc4c(c3)CCO4)=NN2)cc1,resazurin,-,MIC,-,500 µg/mL
NNC(=O)c1ccncc1,-,-,MIC,mc2155,40 µg/mL
COc1ccc(CC2C3=C(CCCC3)CCN2c2cc3c(=O)c(C(=O)O)c4n(c3cc2[N+](=O)[O-])CS4)cc1,agar,-,MIC,ATCC 14468,11.71 µM
COc1ccc(-c2nn(-c3ccc(Cl)cc3)cc2C2CC(c3ccc4c(c3)CCO4)=NN2)cc1,resazurin,-,MIC,-,500 µg/mL
Cc1nc(-c2ccccc2)sc1-c1cn2cc(Cl)ccc2n1,broth dilution / absorbance,-,MIC,mc2155,>50 µg/mL
CNC(=O)[C@@H](C)[C@@H]1NC(=O)/C(=C(O)/C=C/C(C)=C/[C@@H](C)[C@@H]2O[C@]3(C)O[C@@H](C=C[C@]34CO4)[C@@H]2C)C1=O,resazurin,-,MIC90,SMR5,100 µg/mL
COc1ccc(-c2nn(-c3ccc(Cl)cc3)cc2C2CC(c3ccc(C)o3)=NN2)cc1,resazurin,-,MIC,-,62.5 µg/mL
O=C(O)c1c2n(c3cc(F)c(N4CCN(C(c5ccccc5)c5ccc(Cl)cc5)CC4)cc3c1=O)CS2,agar,-,MIC,ATCC 14468,46.64 µM
Cc1nc(-c2ccc(Cl)cc2)sc1-c1cn2cc(Cl)ccc2n1,broth dilution / absorbance,-,MIC,mc2155,>50 µg/mL
COc1c(N2C[C@@H]3CCCN[C@@H]3C2)c(F)cc2c(=O)n(N)c(=O)n(C3CC3)c12,-,-,MIC99,WT,12.5 µg/mL
O=C(O)c1c2n(c3cc(F)c(N4CCC(O)(c5ccc(Cl)cc5)CC4)cc3c1=O)CS2,agar,-,MIC,ATCC 14468,54.24 µM

The last 6 rows once more:

CNC(=O)[C@@H](C)[C@@H]1NC(=O)/C(=C(O)/C=C/C(C)=C/[C@@H](C)[C@@H]2O[C@]3(C)O[C@@H](C=C[C@]34CO4)[C@@H]2C)C1=O ; read by: resazurin ; measure: MIC90 ; strain: SMR5 ; result: 100 µg/mL
COc1ccc(-c2nn(-c3ccc(Cl)cc3)cc2C2CC(c3ccc(C)o3)=NN2)cc1 ; read by: resazurin ; measure: MIC ; result: 62.5 µg/mL
O=C(O)c1c2n(c3cc(F)c(N4CCN(C(c5ccccc5)c5ccc(Cl)cc5)CC4)cc3c1=O)CS2 ; read by: agar ; measure: MIC ; strain: ATCC 14468 ; result: 46.64 µM
Cc1nc(-c2ccc(Cl)cc2)sc1-c1cn2cc(Cl)ccc2n1 ; read by: broth dilution / absorbance ; measure: MIC ; strain: mc2155 ; result: >50 µg/mL
COc1c(N2C[C@@H]3CCCN[C@@H]3C2)c(F)cc2c(=O)n(N)c(=O)n(C3CC3)c12 ; measure: MIC99 ; strain: WT ; result: 12.5 µg/mL
O=C(O)c1c2n(c3cc(F)c(N4CCC(O)(c5ccc(Cl)cc5)CC4)cc3c1=O)CS2 ; read by: agar ; measure: MIC ; strain: ATCC 14468 ; result: 54.24 µM